# Results as given in article PMC9768162, “Synthesis of macrocyclic nucleoside antibacterials and their interactions with MraY” (Nature Communications, 2022).
# Target: T1, MraYSA (S. aureus MraY enzyme) (Staphylococcus aureus, UniProt Q2FZ93)
# T1 sequence (Q2FZ93 1-321): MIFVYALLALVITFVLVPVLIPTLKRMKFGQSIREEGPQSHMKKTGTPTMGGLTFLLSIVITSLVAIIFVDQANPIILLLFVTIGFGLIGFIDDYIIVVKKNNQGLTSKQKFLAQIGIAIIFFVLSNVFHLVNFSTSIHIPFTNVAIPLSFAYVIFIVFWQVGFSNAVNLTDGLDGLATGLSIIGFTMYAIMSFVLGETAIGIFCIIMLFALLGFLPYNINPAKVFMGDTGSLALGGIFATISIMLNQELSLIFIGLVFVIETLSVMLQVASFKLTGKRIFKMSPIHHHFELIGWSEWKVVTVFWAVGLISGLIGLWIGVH
# Assay: Fluorescence-based MraY inhibitory assay (dansylated Park's nucleotide)
# Conditions: ratio of IC50 values, SPM-1 vs SPM-2
compound,measurement,value
CCCCCCCCCCCCCCCC(=O)O[C@@H]1[C@@H]2CN(C[C@@H]1O)[C@H](C(=O)O)[C@@H]([C@H]1O[C@@H](n3ccc(=O)[nH]c3=O)[C@H](O)[C@@H]1O)O[C@@H]1O[C@H](CN2)[C@@H](O)[C@H]1O [SPM-1],fold more potent than SPM-2 against MraYSA,36 fold
